A mixed list of measured activities; the numbers were collected in NIAID ChemDB.

Shared fields: whole-cell or culture tests; organism: HIV-1; cell line: PBMC; endpoint: inhibition

An empty or dashed field is not shown.

compound | strain or isolate | mutations | read by | setting | tested at | value
CC(C)[C@H](NC(=O)c1ccc2ccccc2n1)C(=O)N[C@@H](Cc1ccccc1)[C@H](O)CN1CC[C@@H](OCc2ccncc2)C[C@H]1C(=O)NC(C)(C)C | VR949 |  | p24 |  | 0.025 µM | 90%
CCC(C)[C@H](NC(=O)[C@H](C(C)C)[C@@H](O)[C@H](O)[C@H](CC1CCCCC1)NC(=O)c1ccccc1SCCCCC[C@@H]1SC[C@@H]2NC(=O)NC21)C(=O)NCc1ccccn1 | D34 |  |  |  | 0.1 µM | 17%
Cc1ccc(-c2ccc3c(c2)C=C(C(=O)Nc2ccc(C[N+](C)(C)C4CCOCC4)cc2)CCC3)cc1 | KK |  | p24 |  | 0.0208 µM | 90%
CCC[C@@]1(CCc2ccccc2)CC(O)=C([C@H](CC)c2cccc(NS(=O)(=O)c3ccc(C(F)(F)F)cn3)c2)C(=O)O1 | Isolate N. Amer 5 |  | p24 |  | 0.17 µM | 90%
c1cc(CN2CCCNCCNCCCNCC2)ccc1CN1CCCNCCNCCCNCC1 | 92US077 CLADE B R5X4 |  | p24 |  | 0.1 µM | 76%
COc1cc(O)c2c(=O)oc3cc(O)cc(C)c3c2c1 | NL4-3 |  | p24 / ELISA | 3 d | 35 µM | 66%
COc1c(C)c2c(c(O)c1C/C=C(\C)CCC(=O)O)C(=O)OC2 | NL4-3 |  | p24 |  | 1 µM | 25%
Nc1ccn([C@H]2CC[C@@H](CO)O2)c(=O)n1 | LAV |  | RT activity |  | 0.1 µM | 91.6%
CC(=O)N1CCC(C(=O)N(CCCN2CCC(Cc3ccc(C(N)=O)cc3)CC2)c2ccc(C)c(Cl)c2)CC1 | HKW R5 clinical isolate |  | p24 |  | 0.012 µM | 90%
CCc1cc(NCc2nc3c(Cl)ccc(Cl)c3o2)c(=O)[nH]c1C | Clinical isolate (RT M41L D67N T215Y) | RT-M41L D67N T215Y | p24 |  | 0.8 µM | 90%
O=C1N(Cc2ccc(CO)cc2)[C@H](Cc2ccccc2)[C@H](O)[C@@H](O)[C@@H](Cc2ccccc2)N1Cc1ccc(CO)cc1 | A018C POST AZT |  | p24 |  | 0.25 µM | 90%
Cc1cn([C@H]2C[C@H](N=[N+]=[N-])[C@@H](CO)O2)c(=O)[nH]c1=O | LAV |  | RT activity |  | 0.1 µM | 94%
O=C(NCc1ccc(F)cc1)c1nc(N2CCCCS2(=O)=O)c2cccnc2c1O | BaL |  | p24 |  | 0.022 µM | 95%
CCNc1cccnc1N1CCN(C(=O)c2cc3cc(OC)ccc3[nH]2)CC1 | Seropositive clinical isolate A |  | MTT |  | 1 µM | 87%
COc1cc(C[C@H](C)[C@H](C)Cc2ccc(O)c(O)c2)ccc1O | MN |  | p24 |  | 10 µg/mL | 80%
Nc1ccn([C@@H]2C=C[C@@H](CO)[C@H](CO)S2)c(=O)n1 |  |  | p24 / antigen |  | 0.01 µM | 35%
Oc1ccc(/C=C/c2cc(O)cc(O)c2)cc1 | IIIB |  | p24 |  | 5 µM | 10%

A second listing of 2 rows from above:

| compound | strain or isolate | mutations | read by | setting | tested at | value |
|---|---|---|---|---|---|---|
| Nc1ccn([C@H]2CC[C@@H](CO)O2)c(=O)n1 | LAV |  | RT activity |  | 0.1 µM | 91.6% |
| CCNc1cccnc1N1CCN(C(=O)c2cc3cc(OC)ccc3[nH]2)CC1 | Seropositive clinical isolate A |  | MTT |  | 1 µM | 87% |

Inhibition is in % at the dose shown (toxicity tests: loss of growth or viability). Conditions beyond the fields shown may differ between rows.